Measured values from US10786484B2, “Mono- or di-substituted indole derivatives as dengue viral replication inhibitors” (Janssen Pharmaceuticals, Inc., priority 2015, dated 2020).

Assays:
Type in all cases: cell-based, Dengue virus
[1] = test system: DENV-2 strain 16681; test: Tetravalent RT-qPCR assay Protocol A, serotype 2; conditions: RT-qPCR serotype 2 16681
Procedure: (§1) The antiviral activity of the compounds of the invention was tested against DENV-1 strain TC974#666 (NCPV), DENV-2 strain 16681, DENV-3 strain H87 (NCPV) and DENV-4 strains H241 (NCPV) and EDEN (SG/06K2270DK1/2005; GenBank accession number QG398256) in a RT-qPCR assay. Therefore, Vero cells were infected with either DENV-1, or -2, or -3, or -4 in the presence or absence of test compounds. At day 3 post-infection, the cells were lysed and cell lysates were used to prepare cDNA of both a viral target (the 3′UTR of DENV; Table 2) and a cellular reference gene (β-actin, Table 2). Subsequently, a duplex real time PCR was performed on a Lightcycler480 instrument. The generated Cp value is inversely proportional to the amount of RNA expression of these targets. Inhibition of DENV replication by a test compound results in a shift of Cp's for the 3′UTR gene. On the other hand, if a test compound is toxic to the cells, a similar effect on β-actin expression will be observed. The comparative ΔΔCp method is used to calculate EC50, which is based on the relative gene expression of the target gene (3′UTR) normalized with the cellular housekeeping gene (β-actin). In addition, CC50 values are determined based on the Cp values acquired for the housekeeping gene β-actin.
(§2) The culture medium consisted of minimal essential medium supplemented with 2% of heat-inactivated fetal calf serum, 0.04% gentamycin (50 mg/mL) and 2 mM of L-glutamine. Vero cells, obtained from ECACC, were suspended in culture medium and 75 μL/well was added in 96-well plates (10000 cells/well), which already contain the antiviral compounds. […] In addition, each plate contains wells which are assigned as virus controls (containing cells and virus in the absence of compound) and cell controls (containing cells in the absence of virus and compound). Once the cells were added in the plates, the plates were incubated in a fully humidified incubator (37° C., 5% CO2) until the next day. Dengue viruses serotype-1, 2, 3 and 4 were diluted in order to obtain a Cp of ˜22-24 in the assay. Therefore, 25 μL of virus suspension, was added to all the wells containing test compound and to the wells assigned as virus control. In parallel, 25 μL of culture medium was added to the cell controls. Next, the plates were incubated for 3 days in a fully humidified incubator (37° C., 5% CO2). After 3 days, the supernatant was removed from the wells and the cells were washed twice with ice-cold PBS (−100 μL). The cell pellets within the 96-well plates were stored at −80° C. for at least 1 day. Next, RNA was extracted using the Cells-to-CT™ lysis kit, according to the manufacturer's guideline (Life Technologies). The cell lysates can be stored at −80° C. or immediately used in the reverse transcription step.
(§3) In preparation of the reverse transcription step, mix A (table 3A) was prepared and 7.57 μL/well was dispensed in a 96-well plate. After addition of 5 μL of the cell lysates, a five minute denaturation step at 75° C. was performed (table 3B). Afterwards, 7.43 μL of mix B was added (table 3C) and the reverse transcription step was initiated (table 3D) to generate cDNA.
(§4) Finally, a RT-qPCR mix was prepared, mix C (table 4A), and 22.02 μL/well was dispensed in 96-well LightCycler qPCR plates to which 3 μL of cDNA was added and the qPCR was performed according to the conditions in table 4B on a LightCycler 480.
(§5) Using the LightCycler software and an in-house LIMS system, dose response curves for each compound were calculated and the half maximal effective concentration (EC50) and the half maximal cytotoxic concentration (CC50) were determined (Tables 5-8).

[2] = test system: DENV-1 strain TC974#666; test: Tetravalent RT-qPCR assay Protocol A, serotype 1; conditions: RT-qPCR serotype 1 TC974#666
Procedure: as §1, §2, §3, §4, §5

[3] = test system: DENV-3 strain H87; test: Tetravalent RT-qPCR assay Protocol A, serotype 3; conditions: RT-qPCR serotype 3 H87
Procedure: as §1, §2, §3, §4, §5

[4] = test system: DENV-4 strain H241; test: Tetravalent RT-qPCR assay Protocol A, serotype 4 H241; conditions: RT-qPCR serotype 4 H241
Procedure: as §1, §2, §3, §4, §5

[5] = test system: DENV-2 16681 strain labeled with eGFP; test: DENV-2 antiviral assay (eGFP fluorescence read-out in Vero cells); conditions: SI=CC50/EC50, DENV-2 antiviral assay
Procedure: The antiviral activity of all the compounds of the invention was tested against the DENV-2 16681 strain which was labeled with enhanced green fluorescent protein (eGPF). The culture medium consists of minimal essential medium supplemented with 2% of heat-inactivated fetal calf serum, 0.04% gentamycin (50 mg/mL) and 2 mM of L-glutamine. Vero cells, obtained from ECACC, were suspended in culture medium and 25 μL was added to 384-well plates (2500 cells/well), which already contain the antiviral compounds. Typically, these plates contain a 5-fold serial dilution of 9 dilution steps of the test compound at 200 times the final concentration in 100% DMSO (200 nL). […] Finally, each plate contains wells which are assigned as virus controls (containing cells and virus in the absence of compound), cell controls (containing cells in the absence of virus and compound) and medium controls (containing medium in the absence of cells, virus and compounds). To the wells assigned as medium control, 25 μL of culture medium was added instead of Vero cells. Once the cells were added to the plates, the plates were incubated for 30 minutes at room temperature to allow the cells to distribute evenly within the wells. Next, the plates were incubated in a fully humidified incubator (37° C., 5% CO2) until the next day. Then, DENV-2 strain 16681, labeled with eGFP, was added at a multiplicity of infection (MOI) of 0.5. Therefore, 15 μL of virus suspension was added to all the wells containing test compound and to the wells assigned as virus control. In parallel, 15 μL of culture medium was added to the medium and cell controls. Next, the plates were incubated for 3 days in a fully humidified incubator (37° C., 5% CO2). At the day of the read out, the eGFP fluorescence was measured using an automated fluorescence microscope at 488 nm (blue laser). Using an in-house LIMS system, inhibition dose response curves for each compound were calculated and the half maximal effective concentration (EC50) was determined. Therefore, the percent inhibition (I) for every test concentration is calculated using the following formula: I=100*([…])/(SVC−SCC); ST, SCC and SVC are the amount of eGFP signal in the test compound, cell control and virus control wells, respectively. The EC50 represents the concentration of a compound at which the virus replication is inhibited with 50%, as measured by a 50% reduction of the eGFP fluorescent intensity compared to the virus control. The EC50 is calculated using linear interpolation (Table 1).

[6] = test system: DENV-4 strain EDEN (SG/06K2270DK1/2005); test: Tetravalent RT-qPCR assay Protocol A, serotype 4 EDEN; conditions: RT-qPCR serotype 4 EDEN
Procedure: as §1, §2, §3, §4, §5

`COc1cc(NC(C(=O)c2c[nH]c3cc(OC)c(C)cc23)c2ccc(F)cc2OCCO)cc(S(C)(=O)=O)c1` (single isomer, unassigned) [Compound 6A, 2-(4-fluoro-2-(2-hydroxyethoxy)phenyl)-2-((3-methoxy-5-(methylsulfonyl)phenyl)amino)-1-(6-methoxy-5-methyl-1H-indol-3-yl)ethanone] gave an SI [1] of 6320, an SI [2] of 1140 and an SI [3] of 37. For the same compound, the SI [4] was 28, the SI [5] was 8410 and the SI [6] was 1048.
